Compound potency records, mixed from different reports. Data source: NIAID ChemDB in PubChem.

Common to all: tests on isolated targets; species: HIV-1; target: Integrase; read-out: inhibition

Neighbouring rows are from separate reports.

{"smiles": "Cc1ccc2c(c1)c(C1CCCCC1)nc1ccccc12", "tested at": "50 µM", "method": "strand transfer", "result": "20.65%"}
{"smiles": "C#CCNCC(C(=O)OC)C(O)c1cc(Cl)ccc1OCc1ccccc1", "tested at": "10 µM", "result": "51.7%"}
{"smiles": "COc1cccc2cc(CN(C(=O)c3ccccc3)C3CCCCC3)c(=O)[nH]c12", "tested at": "20 µM", "method": "strand transfer / absorbance", "result": "30%"}
{"smiles": "Cc1ccccc1CNC(=O)/C=C(\\O)C(=O)O", "tested at": "70 µM", "method": "strand transfer", "result": "45%"}
{"smiles": "COc1ccc(/C=C/c2ccc3c(Cl)cc(NS(=O)(=O)c4ccc(OC)cc4)c(O)c3n2)cc1", "tested at": "0.05 µM", "method": "strand transfer", "result": "11.8%"}
{"smiles": "Cc1ccc(CNC(=O)/C=C(\\O)C(=O)O)cc1", "tested at": "70 µM", "method": "strand transfer", "result": "80%"}
{"smiles": "COc1ccc2[nH]c(=O)c(CNC3CCCCC3)cc2c1", "tested at": "20 µM", "method": "strand transfer / absorbance", "result": "44.3%"}
{"smiles": "O=C(/C=C/c1ccc(O)c(O)c1)NCC(NC(=O)/C=C/c1ccc(O)c(O)c1)C(=O)O", "tested at": "10 µM", "method": "3′ processing", "result": "100%"}
{"smiles": "Cc1ccc(S(=O)(=O)Nc2cc(Cl)c3ccc(/C=C/c4ccc(Br)cc4)nc3c2O)cc1", "tested at": "0.05 µM", "method": "strand transfer", "result": "59.5%"}
{"smiles": "COC(=O)C(CNCc1cn([C@H]2C[C@H](n3cc(C)c(=O)[nH]c3=O)O[C@@H]2CO)nn1)C(O)c1cc(Cl)ccc1OCc1ccccc1", "tested at": "10 µM", "result": "32.6%"}
{"smiles": "O=S(=O)(Nc1cc(Cl)c2ccc(/C=C/c3ccc(O)cc3)nc2c1O)c1ccccc1", "tested at": "0.05 µM", "method": "strand transfer", "result": "101.4%"}
{"smiles": "COc1ccc2c(c1)c(/C(O)=C/C(=O)C(=O)O)cn2Cc1ccc(C(F)(F)F)cc1", "tested at": "100 µM", "method": "AlphaScreen", "result": "40%"}
{"smiles": "O=[N+]([O-])c1ccc(S(=O)(=O)Nc2cc(Cl)c3ccc(/C=C/c4ccccc4)nc3c2O)cc1", "tested at": "0.05 µM", "method": "strand transfer", "result": "96.7%"}
{"smiles": "O=C(c1ccccc1)N(Cc1cc2ccccc2[nH]c1=O)C1CC1", "tested at": "20 µM", "method": "strand transfer / absorbance", "result": "39.5%"}
{"smiles": "CC(C)[C@H](NC(=O)[C@H](Cc1ccccc1)NC(=O)[C@H](CCCN=C(N)N)NC(=O)[C@@H](N)Cc1c[nH]c2ccccc12)C(=O)N[C@@H](CO)C(=O)N[C@@H](CCC(N)=O)C(=O)O", "tested at": "0.39 µM", "result": "25%"}
{"smiles": "CCCCOC(=O)C(CNCc1cn([C@H]2C[C@H](n3cc(C)c(=O)[nH]c3=O)O[C@@H]2CO)nn1)C(O)c1cccc(OC)c1O", "tested at": "10 µM", "result": "21.6%"}
{"smiles": "O=C(NCCCC(NC(=O)c1ccc(O)c(O)c1)C(=O)O)c1ccc(O)c(O)c1", "tested at": "10 µM", "method": "3′ processing", "result": "0%"}
{"smiles": "COc1ccccc1CNC(=O)/C=C(\\O)C(=O)O", "tested at": "70 µM", "method": "strand transfer", "result": "55%"}
{"smiles": "O=C(/C=C/c1ccc(O)c(O)c1)NCCC(NC(=O)/C=C/c1ccc(O)c(O)c1)C(=O)O", "tested at": "10 µM", "method": "3′ processing", "result": "93%"}
{"smiles": "COc1ccc(S(=O)(=O)Nc2cc(Cl)c3ccc(/C=C/c4ccccc4)nc3c2O)cc1", "tested at": "0.05 µM", "method": "strand transfer", "result": "72.9%"}
{"smiles": "COc1ccc2[nH]c(=O)c(CN(C(=O)c3ccccc3)C3CCCCC3)cc2c1", "tested at": "20 µM", "method": "strand transfer / absorbance", "result": "38.4%"}
{"smiles": "COC(=O)c1cc(O)c(O)c(O)c1", "tested at": "500 µM", "method": "3′ processing", "result": "62%"}
{"smiles": "C#CCNCC(C(=O)OCCCC)C(O)c1cc(Cl)ccc1O", "tested at": "10 µM", "result": "19.4%"}
{"smiles": "COc1ccc2[nH]c(=O)c(CN(C(=O)c3ccccc3)C3CC3)cc2c1", "tested at": "20 µM", "method": "strand transfer / absorbance", "result": "40.2%"}
{"smiles": "CCCCCCCCCCCCCCCC(=O)NC1C(COP(=O)(O)OC2CC(COP(=O)(O)OC3C(O)C(CO)OC3n3cnc4c(N)ncnc43)OC2n2cnc3c(N)ncnc32)OC(n2cnc3c(N)ncnc32)C1O", "tested at": "1000 µM", "result": "0%"}
{"smiles": "Cc1ccc(Cn2c3ccccc3c3cc(C(=O)NO)ncc32)cc1", "tested at": "50 µM", "method": "strand transfer", "result": "9%"}
{"smiles": "C#CCNCC(C(=O)OCCCC)C(O)c1cc(Br)ccc1O", "tested at": "10 µM", "result": "16.1%"}
{"smiles": "O=c1[nH]c2ccccc2cc1CNC1CCCCC1", "tested at": "20 µM", "method": "strand transfer / absorbance", "result": "24.4%"}
{"smiles": "COC(=O)C(CCCNC(=O)c1ccc(O)c(O)c1)NC(=O)c1ccc(O)c(O)c1", "tested at": "10 µM", "method": "3′ processing", "result": "0%"}
{"smiles": "Cc1cc(C)n(Cc2ccc3[nH]cc(C(=O)O)c(=O)c3c2)n1", "tested at": "100 µg/mL", "method": "strand transfer", "result": "<50%"}

3 of the rows above, restated:

| smiles | tested at | method | result |
|---|---|---|---|
| COc1ccccc1CNC(=O)/C=C(\O)C(=O)O | 70 µM | strand transfer | 55% |
| COc1ccc(/C=C/c2ccc3c(Cl)cc(NS(=O)(=O)c4ccc(OC)cc4)c(O)c3n2)cc1 | 0.05 µM | strand transfer | 11.8% |
| O=[N+]([O-])c1ccc(S(=O)(=O)Nc2cc(Cl)c3ccc(/C=C/c4ccccc4)nc3c2O)cc1 | 0.05 µM | strand transfer | 96.7% |

Inhibition is in % at the dose shown (toxicity tests: loss of growth or viability).